For assay [1], the target named is T1, human NaV1.7 voltage-gated sodium channel (human, UniProt Q15858). Kind of assay: cell-based or functional assay.
The target in assay [2] is T1, human NaV1.7 voltage-gated sodium …. Kind of assay: cell-based or functional assay. The source holds these as a separate data set.

We go through 5 molecules from patent US20150322120A1, “SODIUM CHANNEL SENSITIVE CONOPEPTIDES AND ANALOGS, INCLUDING COMPOSITIONS AND METHODS THEREOF” (University of Utah Research Foundation, published 2015).

Take GWCGDAGATCGKLRLYCCSGFCDSYTKTCKDKSSA [C.geo1[C24S]]: the “IC50, block of hNaV1.7” value in assay [1] is over 10000 nM.
On the same count and under the same terms, under GWCGDAGATCGKLRLYCCSGFCDCYTGTCKDKSSA [C.geo1[K27G]] stands 1600 nM.
Same read-out and setting: the value for GWCGDAGATCGKLRLYCCSGFCDKYTKTCKDKSSA [C.geo1[C24K]] was over 10000 nM.
With GWCGDAGATCGKLRLYCCSGFCDEYTKTCKDKSSA [C.geo1[C24E]], the “IC50, block of hNaV1.7” value in assay [1] is over 10000 nM.
In the case of GWCGDAGATCGKLRLYCCSGFCDCYTKTCKDKSA (O is hydroxyproline; peptide-GSH adduct at Cys-24; carboxylated C-terminus) [C. geo1[des-Ser34]], in assay [2], the “IC50, concentration response curve against hNaV1.7 (QPatch assay)” value was determined as 1800 nM.
